PubChem BioAssay AID504761 – Drosophila RNAi Screening Center | 2011
In all, the deposit lists about 22,000 reagents; below is an unselected part of those with a known target gene and a result. Over the whole deposit, 116 (0.52%) got an active call. 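Calls depend on retest data that are not deposited; infection was ranked per plate without normalising between plates; the unit of the infection score is not given.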 Raw values vary from plate to plate and are shown uncorrected. A number with no mark means an inactive call. Names joined by + are all predicted targets of the reagent. No sequences are given here. Not given: the amount of reagent, the time to read-out.

Screen: 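Genome-wide fly cell screen for genes dengue virus requires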 (primary screen)
System: D.Mel-2 cells from Drosophila
Reagent: long dsRNA against Drosophila genes
Challenge: infection with dengue virus type 2; dose and infection time not stated
Measured: 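Cells stained for dengue envelope protein and imaged; percent of infected cells per well on duplicate plates, ranked by infection, with stained nuclei counted for cell number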
Scale: infection score: higher = more virus-infected cells; cell count: higher = more cells in the well
Active means: 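Very low infection ranking in both replicate wells (chance probability at most 0.065), then a retest showing infection dropped 1.5-fold or more at p below 0.05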
Calls: active = confirmed: knock-down lowers infection; inactive = not picked or not confirmed

Gene | DRSC id | infection score, replicate 1 | infection score, replicate 2 | cell count, replicate 1 | cell count, replicate 2
sgg (shaggy) | DRSC17228 | 2.78 | 5.63 | 6701 | 6376
sgg (shaggy) | DRSC17722 | 5.13 | 6.59 | 6555 | 6635
sgg (shaggy) | DRSC18832 | 6.08 | 2.21 | 6202 | 6697
sgg (shaggy) | DRSC23946 | 0.51 | 3.41 | 6219 | 5750
eIF2alpha (eukaryotic translation initiation factor 2 subunit alpha) | DRSC20327 | 25.2 | 18.6 | 4767 | 5085
CG30099 | DRSC07039 | – | 2.99 | 538 | 1070
CG30099 | DRSC26526 | 2.02 | 1.71 | 6253 | 6041
Fbxl4 (F box and leucine-rich-repeat gene 4) | DRSC19805 | 9.13 | 7.27 | 6409 | 6229
Ance (Angiotensin converting enzyme) | DRSC01865 | 15.4 | 9.71 | 5882 | 5467
Frl (Formin-like) | DRSC09300 | 2.37 | 2.77 | 5272 | 5484
Frl (Formin-like) | DRSC10027 | 2.96 | 1.73 | 5371 | 5598
Frl (Formin-like) | DRSC10716 | 6.49 | 6.81 | 4482 | 4947
Frl (Formin-like) | DRSC28783 | 11.4 | 7.41 | 4992 | 4588
CG42789 | DRSC13793 | 8.9 | 5.14 | 6700 | 6150
ZnT63C (Zinc transporter 63C) | DRSC08032 | 0.42 | 0.75 | 6418 | 6359
ZnT63C (Zinc transporter 63C) | DRSC08033 | 1.06 | 0.5 | 6013 | 6238
ZnT63C (Zinc transporter 63C) | DRSC08519 | 10.5 | 6.02 | 3782 | 2591
ZnT63C (Zinc transporter 63C) | DRSC21989 | 9.53 | 1.03 | 6306 | 6778
ZnT63C (Zinc transporter 63C) | DRSC23528 | 2.55 | 2.21 | 6191 | 6366
Nup93-1 (Nucleoporin 93kD-1) | DRSC19344 | 19.1 | 4.34 | 4422 | 5046

The list goes on (3 carried over from the part before).
Gene | DRSC id | infection score, replicate 1 | infection score, replicate 2 | cell count, replicate 1 | cell count, replicate 2
ZnT63C (Zinc transporter 63C) | DRSC21989 | 9.53 | 1.03 | 6306 | 6778
ZnT63C (Zinc transporter 63C) | DRSC23528 | 2.55 | 2.21 | 6191 | 6366
Nup93-1 (Nucleoporin 93kD-1) | DRSC19344 | 19.1 | 4.34 | 4422 | 5046
CG1239 | DRSC12204 | 2.18 | 9.48 | 6425 | 6385
CG1239 | DRSC27944 | 4.92 | 15.5 | 5736 | 5697
Cyp1 (Cyclophilin 1) | DRSC20234 | 32.5 | 2.05 | 5566 | 7121
Cyp1 (Cyclophilin 1) | DRSC27284 | 31.1 | 5.74 | 6190 | 854
Or2a (Odorant receptor 2a) | DRSC18690 | 2.7 | 15.4 | 6378 | 5247
DptB (Diptericin B) | DRSC06001 | 4.14 | 5.29 | 6206 | 6484
CG11635 + spaw | DRSC06075 | 2.11 | 13.1 | 6259 | 6728
LS2 (Large Subunit 2) | DRSC04340 | 18.7 | 27.3 | 2642 | 3867
Spn43Aa (Serpin 43Aa) | DRSC06117 | 28.8 | 34.2 | 6462 | 6301
lap (like-AP180) | DRSC12628 | 3.1 | 12.8 | 6547 | 6406
lap (like-AP180) | DRSC28215 | – | – | 378 | 358
Tfb5 + CG31917 | DRSC28677 | 12 | 0.25 | 3573 | 397
Sf3b6 (Splicing factor 3b subunit 6) | DRSC09972 | 1.67 | 4.12 | 4600 | 3957
Sf3b6 (Splicing factor 3b subunit 6) | DRSC26462 | 4.91 | 16.2 | 5113 | 4506
Orco (Odorant receptor co-receptor) | DRSC12358 | 10.9 | 5.11 | 6425 | 6804
Orco (Odorant receptor co-receptor) | DRSC27061 | 8.46 | 13.5 | 6492 | 6403
Slu7 | DRSC14729 | 1.52 | 1.31 | 1115 | 1066
Slu7 | DRSC23582 | 3.92 | 22.6 | 1965 | 1916
Irk2 (Inwardly rectifying potassium channel 2) | DRSC15569 | 15.3 | 21 | 6802 | 5722
